From patent US20120095211A1, “SUBSTITUTED PROLINE INHIBITORS OF HEPATITIS C VIRUS REPLICATION” (InterMune, Inc., priority 2010, published 2012)

Chains of the proteins cited; added tags and fusions are not shown. Residues count along the entry.
UniProt P27958, 1027-1657 limits assumed: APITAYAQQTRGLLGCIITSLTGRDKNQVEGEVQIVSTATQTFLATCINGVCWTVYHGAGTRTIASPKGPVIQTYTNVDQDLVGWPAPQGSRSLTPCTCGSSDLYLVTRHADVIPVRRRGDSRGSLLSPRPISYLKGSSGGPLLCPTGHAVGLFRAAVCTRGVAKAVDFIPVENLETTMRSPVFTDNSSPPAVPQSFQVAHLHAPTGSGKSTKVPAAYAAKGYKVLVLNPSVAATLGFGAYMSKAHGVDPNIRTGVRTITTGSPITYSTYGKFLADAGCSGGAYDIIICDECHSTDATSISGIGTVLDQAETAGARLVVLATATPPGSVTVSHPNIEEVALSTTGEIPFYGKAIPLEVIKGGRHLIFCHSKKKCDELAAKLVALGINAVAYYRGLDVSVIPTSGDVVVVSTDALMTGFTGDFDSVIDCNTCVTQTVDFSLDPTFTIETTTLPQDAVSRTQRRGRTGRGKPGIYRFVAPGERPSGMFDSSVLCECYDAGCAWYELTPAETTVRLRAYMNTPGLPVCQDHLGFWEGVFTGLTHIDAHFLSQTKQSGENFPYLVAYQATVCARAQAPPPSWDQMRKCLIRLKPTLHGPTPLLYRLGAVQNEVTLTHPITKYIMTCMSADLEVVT
UniProt P27958, 1658-1711 partner limits assumed: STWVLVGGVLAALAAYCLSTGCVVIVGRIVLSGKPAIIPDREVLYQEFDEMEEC

Key:
NS3/NS4 complexes = NS3/NS4 complexes (Hepatitis C virus genotype 1a, UniProt P27958); assay: NS3/NS4 inhibition assay (inhibitory concentrations of test compounds); assay type: biochemical; conditions: NS3-NS4 activity; 23° C., pH 7.5, 25 μM NS4A peptide; tested form: HCl
Description: (§1) NS3-NS4 inhibition activity can be determined using known assay methods. For example, NS3/NS4 complexes may be formed and inhibitory concentrations of test compounds determined as described in U.S. Patent Application Publication Number 2007/0054842 paragraph numbers 1497-1509, which is incorporated herein by reference in its entirety. Similarly, hepatitis C replicon EC50 may be determined using known assay methods such as described in U.S. Patent Application Publication Number 2007/0054842 paragraph numbers 1510-1515, which is incorporated herein by reference in its entirety. Assays may be conducted at ambient temperature (23° C.) in assay buffer containing 50 mM Tris-HCl, pH 7.5, 15% glycerol, 0.6 mM Lauryldimethylamine Oxide (LDAO), 25 μM NS4A peptide, and 10 mM Dithiothreitol (DTT).

hepatitis C replicon = hepatitis C replicon EC50 assay; assay type: cell-based, hepatitis C virus (HCV); conditions: tested form: HCl
Description: as §1

Compound COc1ccc2c(O[C@H]3CN4C(=O)[C@@H](N)CCCCC/C=C\[C@@H]5C[C@@]5(C(=O)NS(=O)(=O)C5CC5)NC(=O)[C@@H]4[C@@H]3C)cc(-c3nc(C(C)C)cs3)nc2c1C has an IC50 (NS3/NS4 complexes) of under 10 nM and an EC50 (hepatitis C replicon) of under 10 nM.
